Where a sequence shows no end group, the ends are not given.
Experiment: general procedure: Fmoc solid-phase peptide synthesis; Rink amide resin (150 mg, 0.46 meq/g); DCC/6-Cl-HOBt
Details: whole synthesis, scale of the general procedure 150 mg resin

Substance | isolated yield [%] | crude yield [%]
FKCRRWQWR | 11 | 
FKCRRWQWRMKK | 5 | 
RRWQWRMKKLGA | 9 | 
FKCRRWQWRM | 7 | 
FKCRRWQWRMKKL | 5 | 60
FKCRRWQWRMKKLGA | 16 | 
FKCRRWQWRMK | 13 | 
FKARRWQWRMKKLGA | 20 | 
RWQWRWQWR | 30 | 
CRRWQWRMKKLGA | 25 | 
FKCRRWQWRMKKLG | 12 | 
(FKARRWQWRMKKLGA)2K-Ahx-C | 18 | 
KCRRWQWRMKKLGA | 10 | 

Reference: article PMC6152618 (Molecules : A Journal of Synthetic Chemistry and Natural …, 2017)
